Construct, isoform or probe ends are uncertain for at least one entry. At least one verdict was read from the data and is not stated in words by the source.

Sequences of proteins named here, by UniProt entry; tags and fusion partners are left off. A change or cut given only in a name is not applied to a line headed by its entry.
UniProt Q5ZSZ8: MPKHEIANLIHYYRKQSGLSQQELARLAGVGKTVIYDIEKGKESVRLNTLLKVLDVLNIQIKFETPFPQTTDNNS

This data set has as its target HipB(Lp) (Legionella pneumophila Lp01JK) (UniProt Q5ZSZ8). Briefly: EMSA. The conditions noted are these: HipB 2.5 nM, DNA 10 nM; recombinant protein; protein details: His6-SBP tag cleaved. A general note: A gel shift assay detects complexes by their altered migration in electrophoresis.
As for “AAGGAAATCAATCAAATTTACCGCCATAACAGTAATTTATGGTGAATTAA (double strand) [upstream 80-130 (O2)]”, the binding result was “binds”.
“TATCATTTTTACTGCTATAACAGTAATATATAATTAATTTTTGGTGTTCC (double strand) [upstream 0-50 (O1)]”: the binding result was “binds”.
With “TATTCCCCCCTCAAATTTACCGTGATAACAGTAATTTTTAGGAATTTATA (double strand) [upstream 151-200 (O3)]”, the binding result was “binds”.

The values are drawn from paper PMC10653801.
